PMC5786798, “Discovery of New Inhibitors of Toxoplasma gondii via the Pathogen Box” (Antimicrobial Agents and Chemotherapy, 2018)
Where “and” joins values, the source holds several entries; their conditions need not be identical. Identical values can stand only once.

Test system: T. gondii tachyzoites (RH strain, type I)
Test: Determination of IC50s, in vitro chemosensitivity of T. gondii (ELISA, 72 h)
Settings: CC50 Vero cells/IC50 T. gondii ratio

Compound	SI
O=C(Nc1ccc(N2CCNCC2)cc1)c1ccn2ncc(-c3cccc(Cl)c3)c2n1 [MMV022478]	> 4 and 7.7
O=C(Nc1nc(-c2ccccn2)cs1)c1cncn1-c1ccccc1 [MMV676512]	> 4 and 4.2
CNC(=O)c1nn(C)c2c1C(C)(C)Cc1cnc(Nc3ccc(N4CCN(C)CC4)cc3)nc1-2 [MMV676602]	> 4 and 4.1
CCc1nc(N)nc(N)c1-c1ccc(Cl)cc1 [PYR, pyrimethamine, reference compound]	9.0
